Only a part is listed here, and it is no random draw. The source made the active and inactive calls. Cut-off read from the data, not from the text of the source: active = inhibition above about 30%; inconclusive = no clear call, values can overlap the other calls; inactive = below that.

Sequences of proteins named here, by UniProt entry; tags and fusion partners are left off.
UniProt P9WHJ3, whole entry: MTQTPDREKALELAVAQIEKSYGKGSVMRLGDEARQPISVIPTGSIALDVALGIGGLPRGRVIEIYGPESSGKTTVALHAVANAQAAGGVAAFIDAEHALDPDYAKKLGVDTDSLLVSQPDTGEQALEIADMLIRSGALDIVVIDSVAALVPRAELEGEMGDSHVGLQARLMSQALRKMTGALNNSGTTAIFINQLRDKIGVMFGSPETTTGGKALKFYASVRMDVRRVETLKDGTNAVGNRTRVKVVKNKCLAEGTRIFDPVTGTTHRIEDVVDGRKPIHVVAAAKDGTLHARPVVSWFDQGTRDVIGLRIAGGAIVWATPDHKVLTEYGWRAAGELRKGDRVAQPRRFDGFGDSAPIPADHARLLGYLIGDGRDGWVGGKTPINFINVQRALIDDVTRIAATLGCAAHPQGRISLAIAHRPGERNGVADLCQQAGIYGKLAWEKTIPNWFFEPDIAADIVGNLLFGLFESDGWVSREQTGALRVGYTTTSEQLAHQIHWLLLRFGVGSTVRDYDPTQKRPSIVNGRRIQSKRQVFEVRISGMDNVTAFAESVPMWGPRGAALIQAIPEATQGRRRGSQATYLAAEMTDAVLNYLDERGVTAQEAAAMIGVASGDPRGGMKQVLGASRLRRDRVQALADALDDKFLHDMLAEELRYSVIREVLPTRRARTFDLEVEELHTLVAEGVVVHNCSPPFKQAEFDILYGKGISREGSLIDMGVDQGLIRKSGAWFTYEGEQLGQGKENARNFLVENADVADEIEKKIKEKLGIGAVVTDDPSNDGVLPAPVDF

This assay deals with Protein RecA (Mycobacterium tuberculosis (strain ATCC 25618 / H37Rv)) (UniProt P9WHJ3). Put plainly: Mtb RecA intein splicing inhibitors, primary screen, biochemical, fluorescence, HTS (AID 2221).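 Note: 0% = vehicle wells and 100% = reference inhibitor control wells.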 To be noted: cell-free RecA intein splicing, hits give high values, concentration not given here.
`COc1cc(I)ccc1[As](=O)(O)O`: the inhibition was inactive: 2.17%.

Regarding `COc1ccc2nc(NP(=O)(c3ccccc3)c3ccccc3)sc2c1`, the inhibition is inactive: 0.452%.

As to `CCN(CC)CCCOC(=O)C(O)(c1ccccc1)c1ccccc1`, the inhibition is inactive: -2.5%.

With `Cc1cc(=O)[nH]c(N[N+](=O)[O-])n1`, the inhibition is inactive: -0.0886%.

In the case of `O=C(OC1CN2CCC1CC2)C12CC3CC(CC(C3)C1)C2` (stereo not drawn), the inhibition was inactive: -0.808%.

Consider `Cc1c2c(nc3ccccc13)SC(C(Cl)Cl)C2` (stereo not drawn), for which the inhibition was inactive: 3.48%.

Regarding `COc1ccc(N/C(=N/P(=O)(N2CCOCC2)N2CCOCC2)N2CCOCC2)cc1`, the inhibition was inactive: 0.957%.

As to `O=[N+]([O-])c1ccc2c(c1)C=Nc1ccccc1O2`, the inhibition was active: 33.3%.

As for `Cc1cccc(C)c1OP(C)(N)=O` (stereo not drawn), the inhibition was inactive: -2.6%.

Regarding `CC(C)(C)c1ccc(OP(C)(=O)Nc2ccc(SC(F)(F)F)cc2)cc1` (stereo not drawn), the inhibition was inactive: 0.745%.

For the compound `Cc1ccc(OP(=O)(Nc2ccc([N+](=O)[O-])cn2)Oc2ccc(C)cc2)cc1`, the inhibition was inactive: 0.027%.

`C[As](=O)(O)c1cccc(C(=O)O)c1`: the inhibition is inactive: 1.03%.

With `O=[As](O)(c1ccc(O)cc1)c1ccccc1O`, the inhibition is inactive: -0.132%.

Regarding `O=[N+]([O-])c1cc([N+](=O)[O-])c(Nc2cccnc2)c([N+](=O)[O-])c1`, the inhibition is active: 38.3%.

Consider `Cc1cc(C)cc(OP(C)(N)=O)c1` (stereo not drawn), for which the inhibition is inactive: -1.38%.

For `O=[N+]([O-])c1cc([N+](=O)[O-])c(-c2ccn[nH]2)s1`, the inhibition was inactive: 5.29%.

Regarding `COc1ccc(OP(C)(=O)Nc2cccc(F)c2)cc1` (stereo not drawn), the inhibition is inactive: -2.26%.

As for `CCN(CC)C(=S)SC(NC=O)C(Cl)(Cl)Cl` (stereo not drawn), the inhibition was inactive: -1.79%.

With `CC(C)NC(=O)NP(=O)(Oc1ccccc1)Oc1ccccc1`, the inhibition was inactive: -0.0889%.

On to `COc1ccccc1OP(C)(=O)Nc1cc(Cl)ccc1C` (stereo not drawn), for which the inhibition was inactive: 3.59%.

As to `COc1ccccc1OP(C)(=O)Nc1ccc(C)cc1` (stereo not drawn), the inhibition was inactive: 1.62%.

As for `ClCCSc1nnc(-c2cccnc2)o1`, the inhibition was inactive: 2.32%.

For the compound `CCOC(=O)c1ccc(NP(C)(=O)Oc2ccccc2)cc1` (stereo not drawn), the inhibition was inactive: -0.388%.

For `Cc1cc(SC(NC(=O)c2ccccc2)C(Cl)(Cl)Cl)nc(C(C)C)n1` (stereo not drawn), the inhibition was inactive: 3.82%.

`CCCCOc1ccc(C(=O)NCC2(N3CCCCC3)CCCCC2)cc1OC`: the inhibition is inactive: 3.14%.

Regarding `CCOC(=O)Nc1ccc([As](=O)(O)O)c(O)c1`, the inhibition is inactive: -0.252%.

As for `O=[N+]([O-])c1ccc(Nc2ccc(Oc3ccc([N+](=O)[O-])cc3[N+](=O)[O-])cc2)c([N+](=O)[O-])c1`, the inhibition is inactive: 3.11%.

In the case of `CP(=O)(Nc1ccccc1Br)Oc1ccccc1` (stereo not drawn), the inhibition is inactive: -0.382%.

`COc1ccccc1OP(C)(=O)Nc1ccccc1` (stereo not drawn): the inhibition is inactive: 1.91%.

Turning to `Cc1cc(SC(NC=O)C(Cl)(Cl)Cl)ncn1` (stereo not drawn), the inhibition is inactive: -2.68%.

For the compound `O=P(Nc1ccccn1)(c1cccc2ccccc12)c1cccc2ccccc12`, the inhibition was inactive: -1.62%.

Turning to `CCOC(=O)Nc1cccc([As](=O)(O)O)c1`, the inhibition is inactive: 1.59%.

On to `CP(=S)(Nn1cnnc1)Oc1ccccc1` (stereo not drawn), for which the inhibition was inactive: 1.77%.

In the case of `O=C(Nc1ccncc1[N+](=O)[O-])c1ccc([N+](=O)[O-])cc1[N+](=O)[O-]`, the inhibition is inactive: -1.34%.

As for `Cc1cc(C)cc(OP(C)(=O)Nc2ccc(SC(F)(F)F)cc2)c1` (stereo not drawn), the inhibition was inactive: -0.533%.

With `CCc1ccc(OP(C)(=O)N2CCN(c3ccc([N+](=O)[O-])cc3)CC2)cc1` (stereo not drawn), the inhibition is inactive: 4.32%.

As to `CP(=O)(NC(=O)Nc1ccccc1)Oc1ccccc1` (stereo not drawn), the inhibition was inactive: 1.14%.

For `O=C(COc1ccccc1)OC1CN2CCC1CC2` (stereo not drawn), the inhibition is inactive: -1.75%.

Take `CP(=O)(Oc1ccccc1)OC(c1ccccc1)C(F)(F)F` (stereo not drawn): the inhibition was inactive: 0.348%.

With `Cc1cccc(C)c1OP(C)(=O)Nc1ccc(SC(F)(F)F)cc1` (stereo not drawn), the inhibition was inactive: 4.16%.

Consider `COP1(=S)c2c(C)nn(CCC#N)c2N=C(c2ccc(F)cc2)N1C` (stereo not drawn), for which the inhibition is inactive: -1.72%.

On to `CP(=O)(Nc1ccccn1)Oc1ccc(Cl)cc1` (stereo not drawn), for which the inhibition is inactive: 0.597%.

With `CCC(C)N(CC(C)C)C(=S)SC(NC(C)=O)C(Cl)(Cl)Cl` (stereo not drawn), the inhibition is inactive: -20.9%.

Turning to `O=[N+]([O-])c1cc([N+](=O)[O-])c(O)c([N+](=O)[O-])c1.c1ccc(Oc2ccncc2)cc1`, the inhibition is inactive: 8.86%.

As for `CCOC(=O)c1ccc(NC(=O)C(C)(CCl)SC)cc1` (stereo not drawn), the inhibition was inactive: -2%.

Turning to `CCOC(=O)c1ccc(NP(C)(=O)Oc2ccc(OC)cc2)cc1` (stereo not drawn), the inhibition is inactive: 1.99%.

For `O=C(OC1CN2CCC1CC2)c1cccc([N+](=O)[O-])c1` (stereo not drawn), the inhibition was inactive: -3.82%.

On to `CCOP(C)(=S)SCC(=O)NC(C)C(=O)O` (stereo not drawn), for which the inhibition is inactive: 1.15%.

`CC(C)(C)C(=O)NC(Sc1ncccn1)C(Cl)(Cl)Cl` (stereo not drawn): the inhibition is inactive: -2.41%.

On to `Clc1n[nH]nc1-c1nn[nH][15n]1`, for which the inhibition was inactive: -0.719%.

With `CN(CCCl)Cc1cc(Cl)c(NC2=NCCN2)c(Cl)c1`, the inhibition is inactive: -0.439%.

Regarding `CCOP(=O)(Nc1ccc(C)cn1)OCC`, the inhibition is inactive: 0.567%.

Consider `CCOP(=O)(NC(=NC(C)c1ccccc1)NC(C)c1ccccc1)OCC` (stereo not drawn), for which the inhibition is inactive: 4.84%.

Take `CCC1=CC2Cc3nc4ccc(Cl)cc4c(N)c3C(C1)C2` (stereo not drawn): the inhibition was inactive: 2.2%.

Consider `O=P1(Nc2ccccn2)COc2ccccc2OC1`, for which the inhibition was inactive: -0.31%.

Take `CC1(CBr)Cn2c(nc3ccccc3c2=O)S1` (stereo not drawn): the inhibition was inactive: -0.744%.

Take `O=[As](O)(c1ccccc1Br)c1ccccc1Br`: the inhibition is inactive: -0.0357%.

`CN(C(=O)Cc1ccc(Cl)c(Cl)c1)[C@@H]1CCCC[C@H]1N1CCCC1`: the inhibition was inactive: -1.16%.

As for `CC(C)/C=N\N=C(\N)N[N+](=O)[O-]`, the inhibition was inactive: -1.66%.

For the compound `COc1ccccc1CNC(=O)COC(=O)C(O)(c1ccccc1)c1ccccc1`, the inhibition was inactive: -1.65%.

`O=[N+]([O-])c1cc([N+](=O)[O-])c(-c2cnn(-c3ccccc3)c2)c([N+](=O)[O-])c1`: the inhibition is inactive: -0.749%.

Regarding `O=C(/C=C/c1ccccc1)OC1CN2CCC1CC2` (stereo not drawn), the inhibition is inactive: 1.19%.

On to `CCOC(=O)C(CC)C1=NC(C)(C)Cc2ccccc21.O=[N+]([O-])c1cc([N+](=O)[O-])c(O)c([N+](=O)[O-])c1` (stereo not drawn), for which the inhibition was inactive: 8.07%.
